Pooled drug test results. Numbers come from NIAID ChemDB, via PubChem.

Common to all: growth or infection tests; organism: HIV-2; read-out: EC50

Conditions beyond the fields shown may differ between rows. An empty or dashed field is not shown. a–b is a range or a potency band. ECn: concentration that inhibits the pathogen or its effect by n%.

compound | method | strain | cell line | result
Nn1c(-c2ccc(O)c(Cl)c2Cl)n[nH]c1=S | MTT | ROD | MT-4 | >72.83 µg/mL
O=C1c2ccccc2N(Cc2ccccc2)S(=O)(=O)N1Cc1ccccc1 | p24 | ROD | MT-4 | >125 µM
Cc1cn([C@@H]2O[C@@H]3CN[C@@]4(C#N)CS(=O)(=O)O[C@@]34[C@H]2O)c(=O)[nH]c1=O | - | ROD | CEM | >250 µM
CC(=O)c1ccc(C)cc1NC(C(N)=O)c1c(Cl)cccc1Cl | cytopathic effect / MTT | ROD | MT-4 | >710 µM
Cc1cccc(-c2nnc3sc(CC45CC6CC(CC(C6)C4)C5)nn23)c1 | cytopathic effect / MTT | ROD | MT-4 | >10.9 µg/mL
N#Cc1csc(NC(=O)NCCc2ccccc2)n1 | cytopathic effect / XTT | - | MT-4 | >100 µg/mL
O=C1c2ccccc2N(Cc2ccccc2-c2ccccc2)S(=O)(=O)N1Cc1ccccc1 | p24 | ROD | CEM + CEM-SS | 18 µM
CCOC(=O)CNc1nc(Nc2ccc(F)cc2)nc(Oc2cc(=O)oc3ccccc23)n1 | MTT | ROD | MT-4 | >67.6 µg/mL
Cc1cccc(N2C(=O)CSC2c2c(Cl)cccc2Cl)n1 | - | ROD | MT-4 | >284.7 µM
CC(=O)Nc1cnc(Oc2c(Br)cc(Br)cc2Br)nc1Nc1ccc(C#N)cc1 | MTT | ROD | MT-4 | >118 µM
Cc1cc(C)cc(C(=O)c2c(C(C)C)c(=O)[nH]c(=O)n2CC2=CCCC2)c1 | cytopathic effect / XTT | ROD | CEM + CEM-SS | 0.1 µM
CCOC(=O)CNc1nc(NC(=O)Nc2cccc(Cl)c2)nc(Oc2cc(=O)oc3ccccc23)n1 | MTT | ROD | MT-4 | >125 µg/mL
CCc1c(Sc2ccccc2)n(COCc2ccccc2)c(=O)[nH]c1=O | cytopathic effect / MTT | ROD | MT-4 | >30 µM
CCCCCCCCCCCCCCCCCCOP(=O)(OCCCC)OP(=O)(O)OP(=O)(O)OP(=O)(O)OC[C@@H]1C=C[C@H](n2cc(C)c(=O)[nH]c2=O)O1 | syncytia / visual reading | ROD | CEM/TK- | 0.032 µM
Clc1ccc(-c2nnc3sc(CC45CC6CC(CC(C6)C4)C5)nn23)cc1 | cytopathic effect / MTT | ROD | MT-4 | >125 µg/mL
CCOC(=O)CNc1nc(Nc2ccccc2Cl)nc(Oc2cc(=O)oc3ccccc23)n1 | MTT | ROD | MT-4 | >67.7 µg/mL
COc1ccc(Nc2nnc(C(NS(=O)(=O)c3ccc(Cl)cc3)C(C)C)s2)cc1 | MTT | ROD | MT-4 | >10.08 µM
COc1ccc(NC(=O)Nc2nc(NCCc3ccc(OC)c(OC)c3)nc(Oc3cc(=O)oc4ccccc34)n2)cc1 | MTT | ROD | MT-4 | >61.6 µg/mL
CO[C@]12CS(=O)(=O)O[C@@]13[C@@H](CN2)O[C@@H](n1cc(C)c(=O)[nH]c1=O)[C@@H]3O | - | ROD | MT-4 | >250 µM
C[C@]12CCC3C(CC=C4CC(O)CC[C@@]43C)C1CCC2C(/C=C/c1ccc(Br)cc1)=N/O | MTT | ROD | MT-4 | >10.28 µM
Cc1nc(NC(=O)NCCc2ccccc2)sc1C | cytopathic effect / XTT | - | MT-4 | <1 µg/mL
Oc1ccc(-c2nnc3sc(-c4ccc[nH]4)nn23)c(Cl)c1Cl | MTT | ROD | MT-4 | >68.48 µg/mL
O=C1c2ccccc2N(COCc2ccccc2)S(=O)(=O)N1COCc1ccccc1 | p24 | ROD | MT-4 | >44 µM
Nc1cc(O)ccc1-c1nn2c(-c3ccc(O)c(Cl)c3Cl)nnc2s1 | MTT | ROD | MT-4 | >19.61 µg/mL
OC[C@H]1O[C@@H](c2ccccc2)[C@H](O)[C@@H]1O | cytopathic effect | ROD | CEM | >100 µg/mL
O=S(=O)(O)O.O=S(=O)(O)O.O=S(=O)(O)O.O=S(=O)(O)O.O=S(=O)(O)O.O=S(=O)(O)O.O=S(=O)(O)O.O=S(=O)(O)O.O=S(=O)(O)O.O=S(=O)(O)O.O=S(=O)(O)O.O=S(=O)(O)O.OC[C@H]1O[C@@H]2O[C@H]3[C@H](O)[C@@H](O)[C@@H](O[C@H]4[C@H](O)[C@@H](O)[C@@H](O[C@H]5[C@H](O)[C@@H](O)[C@@H](O[C@H]6[C@H](O)[C@@H](O)[C@@H](O[C@H]7[C@H](O)[C@@H](O)[C@@H](O[C@H]1[C@H](O)[C@H]2O)O[C@@H]7CO)O[C@@H]6CO)O[C@@H]5CO)O[C@@H]4CO)O[C@@H]3CO | cytopathic effect / MTT | ROD | MT-4 | 0.4 µg/mL
Cc1cn([C@@H]2O[C@@H]3CN[C@@]4(C#N)CS(=O)(=O)O[C@@]34[C@H]2O[Si](C)(C)C(C)(C)C)c(=O)[nH]c1=O | - | ROD | MT-4 | >50 µM
Cc1cc(C(C)(O)c2ccc(F)cc2)nc(Nc2ccc(C#N)cc2)n1 | MTT | ROD | MT-4 | >61.5 µM
Cc1cn([C@@H]2O[C@@H]3CN[C@@]4(OCC5CCOC5)CS(=O)(=O)O[C@@]34[C@H]2O[Si](C)(C)C(C)(C)C)c(=O)[nH]c1=O | - | ROD | MT-4 | >10 µM
Oc1ccc(-c2nnc3sc(-c4cccnc4)nn23)c(Cl)c1Cl | MTT | ROD | MT-4 | >80.05 µg/mL
C[C@]12CCC3C(CC=C4CC(O)CC[C@@]43C)C1CCC2C(=O)/C=C/c1ccc(/C=C/C(=O)C2CCC3CCC4C(CC=C5C[C@@H](O)CC[C@@]54C)[C@]32C)cc1 | MTT | ROD | MT-4 | >47.75 µM
O=C1[C@@H](Cc2ccccc2)NC(=S)N1c1ccccc1 | cytopathic effect / XTT | - | MT-4 | <100 µg/mL
Cc1ccc(-c2nnc3sc(CC45CC6CC(CC(C6)C4)C5)nn23)cc1 | cytopathic effect / MTT | ROD | MT-4 | >125 µg/mL
CCCCN1C(=O)[C@@H](Cc2ccccc2)NC1=S | RT activity | - | MT-4 | <100 µg/mL
CC(NS(=O)(=O)c1ccc(Cl)cc1)c1nnc(Nc2ccc(F)cc2)s1 | MTT | ROD | MT-4 | >6.85 µM
CCOP(=O)(OCC)C(Cc1ccccc1)N[C@@H](Cc1ccccc1)[C@H](O)CN(CC(C)C)S(=O)(=O)c1ccc(OC)cc1 | MTT | ROD | MT-4 | >13.25 µg/mL
COc1ccc(CCNc2nc(NC(=O)Nc3ccc(Br)cc3)nc(Oc3cc(=O)oc4ccccc34)n2)cc1OC | MTT | ROD | MT-4 | >47.63 µg/mL
Nn1c(-c2cccc(Br)c2)n[nH]c1=S | MTT | ROD | MT-4 | >75.4 µg/mL
O=C(NCCc1ccccc1)Nc1nc2ccccc2s1 | RT activity | - | MT-4 | <1 µg/mL
O=S1(=O)N=C(OCc2ccccc2)c2ccccc2N1Cc1ccc(Cl)c(Cl)c1 | p24 | ROD | MT-4 | >125 µM
Cc1[nH]c(=S)n(Nc2cccc(Cl)c2)c1-c1cccc(C#N)c1 | cytopathic effect / MTT | ROD | MT-4 | >32.1 µg/mL
COc1ccc(CCNc2nc(NC(=S)Nc3ccccc3C)nc(Oc3cc(=O)oc4ccccc34)n2)cc1OC | MTT | ROD | MT-4 | >20.03 µg/mL
Brc1ccccc1-c1nnc2sc(CC34CC5CC(CC(C5)C3)C4)nn12 | cytopathic effect / MTT | ROD | MT-4 | >24.7 µg/mL
COc1ccc(Nc2nnc(C(NS(=O)(=O)c3ccc(OC)cc3)C(C)C)s2)cc1 | MTT | ROD | MT-4 | >21.03 µM
Nn1cc[nH]c1=S | - | ROD | - | 0.2–4 µg/mL
CC(=O)Nc1cnc(Oc2c(C)cc(C=O)cc2C)nc1Nc1ccc(C#N)cc1 | MTT | ROD | MT-4 | >236 µM
Clc1ccc(-c2nn3c(-c4ccc(Cl)c(Cl)c4)nnc3s2)cc1Cl | MTT | ROD | MT-4 | >67.8 µg/mL
CCCOC12CS(=O)(=O)OC13[C@@H](CN2)O[C@@H](n1cc(C)c(=O)[nH]c1=O)[C@@H]3O[Si](C)(C)C(C)(C)C | - | ROD | MT-4 | >10 µM
CN(C)c1ccc(/C=C/C(=O)C2CCC3C4CC=C5C[C@@H](O)CC[C@]5(C)C4CC[C@]23C)c(Cl)c1 | MTT | ROD | MT-4 | >12.95 µM
Nc1ccc([C@H]2C[C@H](O)[C@@H](CO)O2)c(F)c1 | - | - | CEM | >250 µM
C=C(C)[C@]1(O)C[C@@H](C)[C@@]2(O)[C@H]([C@H]1OC(=O)/C=C/C=C/CCCCC)[C@@H]1O[C@]1(CO)[C@@H](O)[C@]1(O)C(=O)C(C)=C[C@H]12 | syncytia | CBL-20 | C8166 | 0.05292 µM
CC(C)=CCOc1cc(NC(=S)c2ccoc2C)ccc1Cl | p24 | ROD | CEM + CEM-SS | >2 µM
Cn1c([S-])nc2nc(-c3ccccc3)c(-c3ccccc3)nc2c1=O.[Cl][Pt+2][Cl] | cytopathic effect | ROD | MT-4 | >2.23 µg/mL
Brc1ccc(-c2nnc3sc(CC45CC6CC(CC(C6)C4)C5)nn23)cc1 | cytopathic effect / MTT | ROD | MT-4 | >125 µg/mL
Cc1ccc(S(=O)(=O)NC(C)c2nnc(Nc3ccc(F)cc3)s2)cc1 | MTT | ROD | MT-4 | >71.85 µM
CCO[C@]12CS(=O)(=O)O[C@@]13C(CN2)O[C@@H](n1cc(C)c(=O)n(C)c1=O)[C@@H]3O[Si](C)(C)C(C)(C)C | - | ROD | MT-4 | >50 µM
Nn1c(-c2ccc(O)c(Br)c2)n[nH]c1=S | MTT | ROD | MT-4 | >75.4 µg/mL
Fc1cccc(-c2nnc3sc(CC45CC6CC(CC(C6)C4)C5)nn23)c1 | cytopathic effect / MTT | ROD | MT-4 | >125 µg/mL
CO[C@H]1[C@H]2O[Si](C(C)C)(C(C)C)O[Si](C(C)C)(C(C)C)OC[C@@H]2O[C@@H]1c1ccccc1 | cytopathic effect | ROD | CEM | >4 µg/mL
Cc1cc(C#CCCO)cc(C)c1Oc1ccnc(Nc2ccc(C#N)cc2)n1 | MTT | ROD | MT-4 | >3.555 µM
C[C@]12CCC3C(CC=C4C[C@@H](O)CC[C@@]43C)C1CCC2C(=O)/C=C/c1ccc(C(F)(F)F)cc1 | MTT | ROD | MT-4 | >55.38 µM
CCOC(=O)CNc1nc(Nc2ccc3ccccc3c2)nc(Oc2cc(=O)oc3ccccc23)n1 | MTT | ROD | MT-4 | >46.53 µg/mL
O=C1c2ccccc2N(CC2CCCCC2)S(=O)(=O)N1Cc1ccccc1 | p24 | ROD | CEM + CEM-SS | >10 µM
Nc1nc2c(ccn2[C@H]2C=C[C@@H](CO)C2)c(=O)[nH]1 | RT activity | D194 | PBMC | 6 µM
CC(C)CS[C@H]1C[C@@H](n2cnc3c(N)ncnc32)[C@H](O)[C@@H]1O | cytopathic effect / syncytia / trypan blue | ROD | CEM | 150 µg/mL
Cc1cn([C@@H]2O[C@@H]3CN[C@@]4(C(N)=O)CS(=O)(=O)O[C@@]34[C@H]2O[Si](C)(C)C(C)(C)C)c(=O)[nH]c1=O | - | ROD | CEM | >125 µM
N#Cc1ccc(Nc2nc(Oc3c(Br)cc(Br)cc3Br)ncc2NC(=O)C(F)(F)F)cc1 | MTT | ROD | MT-4 | >17 µM
Cc1ccc(S(=O)(=O)NC(Cc2ccccc2)c2nnc(Nc3ccc(Br)cc3)s2)cc1 | MTT | ROD | MT-4 | >1.58 µM
Nc1cc(O)ccc1-c1n[nH]c(=S)n1N | MTT | ROD | MT-4 | >12 µg/mL
COC(=O)[C@H](C)NP(=O)(OC[C@@H]1C=C[C@H](n2cc(C)c(=O)[nH]c2=O)O1)Oc1ccccc1 | syncytia | ROD | CEM + CEM/0 | 0.2 µM
Cc1cc(C)cc(C(=O)c2c(C(C)C)c(=O)[nH]c(=O)n2CC2CC=CC2)c1 | cytopathic effect / XTT | ROD | CEM + CEM-SS | 0.16 µM
CCOP(=O)(OCC)C(Cc1ccccn1)N[C@@H](Cc1ccccc1)[C@H](O)CN(CC(C)C)S(=O)(=O)c1ccc(OC)cc1 | MTT | ROD | MT-4 | >13.93 µg/mL
Cc1cc(Br)cc(C)c1Oc1ncc([N+](=O)[O-])c(Nc2ccc(C#N)cc2)n1 | MTT | ROD | MT-4 | >202.3 µM
O=C(NCCc1ccccc1)Nc1nc2ccc(F)cc2s1 | cytopathic effect / XTT | - | MT-4 | <100 µg/mL

5 of the rows above, restated:

compound,method,strain,cell line,result
C[C@]12CCC3C(CC=C4CC(O)CC[C@@]43C)C1CCC2C(=O)/C=C/c1ccc(/C=C/C(=O)C2CCC3CCC4C(CC=C5C[C@@H](O)CC[C@@]54C)[C@]32C)cc1,MTT,ROD,MT-4,>47.75 µM
O=C(NCCc1ccccc1)Nc1nc2ccc(F)cc2s1,cytopathic effect / XTT,-,MT-4,<100 µg/mL
OC[C@H]1O[C@@H](c2ccccc2)[C@H](O)[C@@H]1O,cytopathic effect,ROD,CEM,>100 µg/mL
O=C1c2ccccc2N(Cc2ccccc2)S(=O)(=O)N1Cc1ccccc1,p24,ROD,MT-4,>125 µM
Cc1cc(C)cc(C(=O)c2c(C(C)C)c(=O)[nH]c(=O)n2CC2=CCCC2)c1,cytopathic effect / XTT,ROD,CEM + CEM-SS,0.1 µM